One compound from patent US12606829B2, “Compositions for herpesvirus transcriptional feedback circuit disruption and uses thereof” (priority 2018, dated 2026) can be followed below.

The test system of the series is HSV-1 (17syn+ IE175-YFP). The experiment in a line: Continuous-culture experiment, HSV-1 passaged on ARPE-19 cells. The class given is cell-based.

As for `Nc1nc2c(ncn2COCCO)c(=O)[nH]1` [ACV, acyclovir], for the setting “HSV-1, ACV”, the “day at which resistance (positive slope of the titering dynamics) begins” value turned out to be 4 days. Further, the “emergence of HSV-1 resistance” value (MOI=1, ACV, supernatant transferred every 2 days over 3 rounds) is “within two rounds of infection”.
